According to PMC5823870 (Scientific Reports, 2018):

Test system: N[C@@H](CCC(=O)N[C@@H](CSS)C(=O)NCC(=O)O)C(=O)O
Assay: purified protein
Details: 100 mM potassium phosphate pH 7.4, 25 °C, 1 mM GSH, GSSH 0 to 1.2 mM made in situ from GSH and acetonic sulfur, O2 co-substrate

Substance: Blh ETHE1 domain (SDO domain) (Xylella fastidiosa 9a5c)
- Km: 180 µM
